# Reference: PubChem BioAssay AID504761 (Drosophila RNAi Screening Center, 2011)
# Screen: 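Genome-wide fly cell screen for genes dengue virus requires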 (primary screen)
# System: D.Mel-2 cells from Drosophila
# Reagents: long dsRNA against Drosophila genes
# Conditions: infection with dengue virus type 2; dose and infection time not stated
# Detection: 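Per well on two replicate plates, imaging gave the percent of cells positive for viral envelope protein, ranked by infection, and a nuclear count of cells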
# Direction: infection score: higher = more virus-infected cells; cell count: higher = more cells in the well
# Call rule: 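Low infection ranks in the two replicates (chance level up to 0.065) followed by a retest with a 1.5-fold or larger significant decrease, p below 0.05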
# Calls: active = confirmed: knock-down lowers infection; inactive = not picked or not confirmed
# In all, the deposit lists about 22,000 reagents; below is an unselected part of those that have a named target and a result. Of all reagents, 116 (0.52%) are marked active. 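Calls depend on retest data that are not deposited; infection was ranked per plate without normalising between plates; the unit of the infection score is not given.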 The raw values are shown without normalisation. A number with no mark means an inactive call. Not given: the amount of reagent, the time to read-out.
gene knocked down,amplicon,"infection score, replicate 1","infection score, replicate 2","cell count, replicate 1","cell count, replicate 2"
woc,DRSC15928,9.65,3.29,5491,5928
so,DRSC23096,1.13,1.37,6185,6508
pyx,DRSC08510,2.55,8.75,6090,5852
pyx,DRSC08511,4.29,16.6,6182,2385
pyx,DRSC28167,7.52,34.3,6385,5215
NSD,DRSC15691,11.8,9.49,5445,1812
CG30273,DRSC22059,3,2.43,6832,6696
CG30273,DRSC25520,5.21,4.86,5724,6152
CG7910,DRSC16341,8.85,5.69,6066,6241
rogdi,DRSC10906,7.37,23.6,6066,5461
RpL10Ab,DRSC10798,3.85,4.07,2207,2310
RpL10Ab,DRSC26988,8.2,4.87,3441,3391
RIOK1,DRSC09853,5.49,5.09,6378,6713
Dbp45A,DRSC07395,11.1,1.81,5918,6195
Vajk1,DRSC01882,4.87,9.24,5970,4880
Vajk1,DRSC26105,5.71,1.88,5970,6004
Sec23,DRSC12387,3.06,3.53,2877,4310
Tango14,DRSC00667,9.31,3.55,7057,6755
Tango14,DRSC29882,27.1,25.3,5948,5725
CG14739,DRSC14959,5.88,8.8,6485,6691
CG13711,DRSC08320,2.86,2.17,6548,6002
CG13711,DRSC24101,14.1,16.5,5855,5500
E(bx),DRSC08172,5.15,8.86,5937,6301
E(bx),DRSC08509,3.72,18,6531,5973
E(bx),DRSC08583,2.4,2.25,1166,1735
CG30268,DRSC21983,2.29,15.6,6841,5762
sno,DRSC20378,1.23,5.5,7085,6531
CG7653,DRSC01886,3.93,2.17,6695,6487
Mdr49,DRSC07466,26,8.62,5878,6065
Mdr49,DRSC24065,6.39,0.75,5759,5897
CG32795,DRSC18609,1.64,17.4,610,4240
CG32795,DRSC18610,8.55,6.99,6631,2173
CG5664,DRSC11782,8.03,5.67,6453,6521
fru,DRSC16953,7.33,3.54,6688,6859
fru,DRSC24960,3.24,5.35,5842,6112
AsnRS,DRSC01990,12.2,5.84,6360,6403
CG32112,DRSC09815,3.86,2.36,5987,6445
CG13674,DRSC10033,1.04,1.63,5876,6364
CG13674,DRSC27828,36.3,9.42,6013,6390
